Source: article PMC12598866, “A Comparative Study of Virucidal and Virustatic Multivalent Entry Inhibitors” (The Journal of Physical Chemistry. B, 2025)

system: glycoprotein D (gD) of HSV; assay: Isothermal titration calorimetry with glycoprotein D; format: binding; conditions: ITC, 25°C
Experimental: Isothermal titration calorimetry (ITC) experiments were conducted using ITC200 instruments (GE Healthcare, USA) equipped with a 200 μL sample cell and a 40 μL syringe. Thirteen injections were applied. The first data point was excluded. BSA protein and viral protein concentrations in the cell were approximately 50 μM and 1 mg/mL, respectively, and ligand concentrations in the syringe were roughly 2 mM. They were centrifuged at 2000g for 2 min to remove bubbles. The titration was performed at 25 or 37 °C, with data analyzed using MicroCal PEAQ ITC software. Baseline correction was applied, and Nitpic/Sedphat was used for automated integration to ensure precise binding parameter determination.

Row | Compound | -∆TS (Glycoprotein D) [kcal/mol] | ∆G (Glycoprotein D) [kcal/mol] | ∆H (Glycoprotein D) [kcal/mol]
1 | O=S(=O)(O)CCCCCCSCc1cc(CSCCCCCCS(=O)(=O)O)cc(CSCCCCCCS(=O)(=O)O)c1 [B3C6SO3] | -3.59 | -6.61 | -3.02
2 | O=S(=O)(O)OCCCCCCSCc1cc(CSCCCCCCOS(=O)(=O)O)cc(CSCCCCCCOS(=O)(=O)O)c1 [B3C6SO4] | -4.61 | -6.21 | -1.6
3 | O=S(=O)(O)CCCCCCCCCCCSCc1cc(CSCCCCCCCCCCCS(=O)(=O)O)cc(CSCCCCCCCCCCCS(=O)(=O)O)c1 [B3C11SO3] | -5.04 | -6.32 | -1.28
4 | O=S(=O)(O)OCCCCCCCCCCCSCc1cc(CSCCCCCCCCCCCOS(=O)(=O)O)cc(CSCCCCCCCCCCCOS(=O)(=O)O)c1 [B3C11SO4] | -4.17 | -6.21 | -2.04
5 | O=S(=O)(O)CCCCCCCCCCCSCc1cc2c(cc1CSCCCCCCCCCCCS(=O)(=O)O)OCCOCCOc1cc(CSCCCCCCCCCCCS(=O)(=O)O)c(CSCCCCCCCCCCCS(=O)(=O)O)cc1OCCOCCO2 [C4C11SO3] | -4.72 | -5.56 | -0.839
6 | O=S(=O)(O)OCCCCCCCCCCCSCc1cc2c(cc1CSCCCCCCCCCCCOS(=O)(=O)O)OCCOCCOc1cc(CSCCCCCCCCCCCOS(=O)(=O)O)c(CSCCCCCCCCCCCOS(=O)(=O)O)cc1OCCOCCO2 [C4C11SO4] | -4.38 | -5.25 | -0.875
